From patent US20050267051A1, “Antineoplastic and anti-HIV conjugates of steroid acid and nucleosides” (priority 2003, published 2005)

Test system: HIV-1
Test: Anti-HIV assay with T4 lymphocytes (CEM-SS cell line), XTT, protection against HIV cytopathic effects
Type: cell-based
Description: The ester conjugates were subjected to standard in vitro anti-HIV bioassays [see: with T4 lymphocytes (CEM-SS cell line) according to the standard assays described, for example in Bourinbaiar AS, Lee-Huang S. Contraception 1995; 51:319-22 and http://www.iaen.org/files.cgi/7014_Bourinbaiar.pdf. Drug efficacy (EC50) was obtained by adding HIV and AZT conjugate to the cell to measure protection of the drug against HIV-induced celldeath. The cytotoxicity (IC50) data was obtained from adding only the conjugate to the cell to measure cell death caused by the agent. The therapeutic index (TI) is the ratio IC50/EC50. […] These two active agents appear to have less cytotoxicity and weaker anti-HIV potency than AZT. […] This intriguing profile of conjugate (4) prompted further evaluations of its growth inhibition in comparison to (5) and (6).
The anti-HIV assay was carried out with T4 lymphocytes (CEM-SS cell line) through the following standard procedure. Agent is dissolved in dimethyl sulfoxide and diluted 1:100 in cell culture medium before preparing serial half-log 10 dilutions. […] Individual wells are analyzed spectrophotometrically to quantitate formazan production, and in addition are viewed microscopically for detection of viable cells and confirmation of protective activity. […]

Row | Compound | TI (IC50/EC50), therapeutic index
1 | COC(OC)C(=O)[C@H]1[C@H](C(=O)OC[C@H]2O[C@@H](n3cc(C)c(=O)[nH]c3=O)C[C@@H]2N=[N+]=[N-])C[C@H]2[C@@H]3CCC4=CC(=O)C=C[C@]4(C)[C@H]3[C@@H](O)C[C@@]21C [compound 5, 3′-Azido-3′-deoxythymidine-5′-[21,21-dimethoxy-3,20-dioxo-11β-hydroxy-1,4-pregnadiene-16α-carboxylate]] | 370
2 | Cc1cn(C2C[C@H](N=[N+]=[N-])C(COC(=O)[C@@H]3OC(C)(C)O[C@@]34CCC3C5CCC6=CC(=O)C=CC6(C)C5C(O)CC34C)O2)c(=O)[nH]c1=O (stereo partly drawn) [compound 6, 3′-Azido-3′-deoxythymidine-5′-[11β-hydroxy-17,20α-isopropylidenedioxy-3-oxo-1,4-pregnadiene-21-oate]] | 184
